## Sequence variants of PSTVd loop 15 after infection

Data from the supplement of Wu et al. 2024, doi:10.1371/journal.ppat.1012142.

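A pool of all variants was put on leaves of three Nicotiana benthamiana plants. Samples came from the inoculated region at 5 days, the leaf margin at 10 and upper systemic leaves at 12.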

Region: loop 15 of PSTVd (intermediate strain), upper and lower strand joined, each 5' to 3', the first 7 letters being the upper strand, closing pairs included. Wild type: GGAAACCGCUACUAC. Varied positions (N): GGAAACCGNNNNNNC.

Values are reads per thousand in the sample; higher means more abundant, 0 means not found.
Each site shows the three plants.
"Pool" is the share in the plasmid pool used as inoculum, on the same scale.
The inoculated region was read from the minus strand, the other sites from the plus strand.

* GGAAACCGUGUCCCC (pool 0.224) -> inoculated region 0.0655 / 0.0482 / 0.171; leaf margin 0 / 0 / 0.0401; systemic leaves 0 / 0 / 0
* GGAAACCGCCUGGGC (pool 0.240) -> inoculated region 0.213 / 0.193 / 0.152; leaf margin 0.0162 / 0.0223 / 0.0200; systemic leaves 0 / 0 / 0
* GGAAACCGCGUCCCC (pool 0.256) -> inoculated region 0.0655 / 0.0964 / 0.0762; leaf margin 0.0485 / 0 / 0; systemic leaves 0 / 0 / 0
* GGAAACCGUGUGAAC (pool 0.128) -> inoculated region 0.295 / 0.305 / 0.400; leaf margin 0.146 / 0.111 / 0.100; systemic leaves 0.0644 / 0 / 0
* GGAAACCGCCCUCUC (pool 0.256) -> inoculated region 0.115 / 0.0803 / 0.152; leaf margin 0 / 0 / 0.0200; systemic leaves 0 / 0 / 0
* GGAAACCGGAAAAUC (pool 0.160) -> inoculated region 0.0655 / 0.0482 / 0.133; leaf margin 0.0162 / 0 / 0; systemic leaves 0 / 0 / 0
* GGAAACCGUAGAGUC (pool 0.224) -> inoculated region 0.0819 / 0.129 / 0.0952; leaf margin 0 / 0.0223 / 0.0401; systemic leaves 0.0161 / 0 / 0
* GGAAACCGGGUGUUC (pool 0.128) -> inoculated region 0.0819 / 0.112 / 0.0762; leaf margin 0 / 0 / 0.0401; systemic leaves 0 / 0 / 0
* GGAAACCGAGAUUGC (pool 0.320) -> inoculated region 0.442 / 0.530 / 0.400; leaf margin 0.0808 / 0.0445 / 0.140; systemic leaves 0.0644 / 0.0151 / 0.0684
* GGAAACCGAGAACAC (pool 0.176) -> inoculated region 0.475 / 0.402 / 0.362; leaf margin 0.146 / 0.111 / 0.100; systemic leaves 0.0483 / 0 / 0
* GGAAACCGCUUUUAC (pool 0.160) -> inoculated region 0.295 / 0.353 / 0.324; leaf margin 0.194 / 0.111 / 0.120; systemic leaves 0.0322 / 0.0151 / 0.137
* GGAAACCGAAUCACC (pool 0.336) -> inoculated region 0.0819 / 0.0803 / 0.0762; leaf margin 0.0162 / 0 / 0.0401; systemic leaves 0 / 0 / 0
* GGAAACCGAGGUAUC (pool 0.192) -> inoculated region 0.475 / 0.450 / 0.248; leaf margin 0.0323 / 0 / 0; systemic leaves 0.0161 / 0 / 0
* GGAAACCGUGGAGUC (pool 0.336) -> inoculated region 0.0655 / 0.0803 / 0.171; leaf margin 0 / 0 / 0.0200; systemic leaves 0 / 0 / 0
* GGAAACCGUAGAAAC (pool 0.0960) -> inoculated region 0.0983 / 0.209 / 0.133; leaf margin 0 / 0.0223 / 0; systemic leaves 0.0161 / 0 / 0
* GGAAACCGACGGGUC (pool 0.256) -> inoculated region 0.557 / 0.466 / 0.305; leaf margin 0 / 0 / 0.0401; systemic leaves 0.0161 / 0 / 0
* GGAAACCGUGGGUGC (pool 0.288) -> inoculated region 0.311 / 0.369 / 0.343; leaf margin 0.113 / 0.0668 / 0.100; systemic leaves 0.0644 / 0 / 0
* GGAAACCGUCACGGC (pool 0.288) -> inoculated region 0.131 / 0.0321 / 0.0952; leaf margin 0.0162 / 0 / 0; systemic leaves 0 / 0 / 0
* GGAAACCGGGGGCUC (pool 0.208) -> inoculated region 0.115 / 0.0643 / 0.0762; leaf margin 0 / 0 / 0.0200; systemic leaves 0 / 0 / 0
* GGAAACCGCGCAGGC (pool 0.352) -> inoculated region 0.0491 / 0.0803 / 0.133; leaf margin 0.0323 / 0 / 0; systemic leaves 0 / 0 / 0
* GGAAACCGGAAAUCC (pool 0.272) -> inoculated region 0.0819 / 0.0964 / 0.0381; leaf margin 0.0162 / 0.0445 / 0; systemic leaves 0 / 0 / 0
* GGAAACCGUCCGUUC (pool 0.176) -> inoculated region 0.197 / 0.289 / 0.457; leaf margin 0.129 / 0.0891 / 0.0801; systemic leaves 0.0644 / 0.0605 / 0.160
* GGAAACCGCAAGUGC (pool 0.208) -> inoculated region 0.197 / 0.257 / 0.343; leaf margin 0.129 / 0.0668 / 0.100; systemic leaves 0.0322 / 0.0756 / 0.0684
* GGAAACCGCGAAAAC (pool 0.272) -> inoculated region 0.311 / 0.402 / 0.381; leaf margin 0.0808 / 0.0891 / 0.220; systemic leaves 0.0644 / 0.0756 / 0.0684
* GGAAACCGCCCAAUC (pool 0.240) -> inoculated region 0.0655 / 0.112 / 0.209; leaf margin 0.0162 / 0 / 0.0200; systemic leaves 0 / 0 / 0
* GGAAACCGUUACCGC (pool 0.208) -> inoculated region 0.246 / 0.289 / 0.248; leaf margin 0.113 / 0.0668 / 0.160; systemic leaves 0.0483 / 0 / 0
* GGAAACCGUUUCGAC (pool 0.192) -> inoculated region 0.0491 / 0.0803 / 0.114; leaf margin 0 / 0 / 0; systemic leaves 0 / 0 / 0
* GGAAACCGGGGAGCC (pool 0.288) -> inoculated region 0.0655 / 0.0643 / 0.0952; leaf margin 0.0162 / 0 / 0.0200; systemic leaves 0 / 0 / 0
* GGAAACCGGACUAUC (pool 0.144) -> inoculated region 0.131 / 0.0482 / 0.133; leaf margin 0 / 0.0223 / 0.0601; systemic leaves 0 / 0 / 0
* GGAAACCGGCCUUCC (pool 0.240) -> inoculated region 0.0819 / 0.112 / 0.228; leaf margin 0.0162 / 0 / 0; systemic leaves 0 / 0 / 0
* GGAAACCGGUUUUAC (pool 0.208) -> inoculated region 0.246 / 0.241 / 0.305; leaf margin 0.146 / 0.156 / 0.180; systemic leaves 0.0644 / 0 / 0
* GGAAACCGUCGUUUC (pool 0.208) -> inoculated region 0.0983 / 0.0482 / 0.0381; leaf margin 0.0162 / 0 / 0.0200; systemic leaves 0 / 0 / 0
* GGAAACCGGUAUCGC (pool 0.160) -> inoculated region 0.0655 / 0.112 / 0.0190; leaf margin 0.0162 / 0 / 0.0200; systemic leaves 0.0322 / 0 / 0.0228
* GGAAACCGUCUGGUC (pool 0.272) -> inoculated region 0.377 / 0.305 / 0.190; leaf margin 1.02 / 0.0223 / 0; systemic leaves 0.0161 / 0 / 0
* GGAAACCGGUGAAAC (pool 0.272) -> inoculated region 0.0655 / 0.0643 / 0.0952; leaf margin 0.0162 / 0 / 0.0200; systemic leaves 0 / 0 / 0
* GGAAACCGUCGACGC (pool 0.208) -> inoculated region 0.147 / 0.0643 / 0.133; leaf margin 0 / 0 / 0.0200; systemic leaves 0 / 0 / 0
* GGAAACCGGCGUCCC (pool 0.384) -> inoculated region 0.131 / 0.112 / 0.0762; leaf margin 0 / 0 / 0; systemic leaves 0.0161 / 0 / 0
* GGAAACCGGCCGGGC (pool 0.176) -> inoculated region 0.0491 / 0.177 / 0.0762; leaf margin 0 / 0 / 0; systemic leaves 0 / 0 / 0
* GGAAACCGCUUGCGC (pool 0.272) -> inoculated region 0.131 / 0.112 / 0.133; leaf margin 0 / 0.0223 / 0.0200; systemic leaves 0 / 0 / 0

5 of these entries, quoted again:

* GGAAACCGUCUGGUC (pool 0.272) = inoculated region 0.377 / 0.305 / 0.190; leaf margin 1.02 / 0.0223 / 0; systemic leaves 0.0161 / 0 / 0
* GGAAACCGCAAGUGC (pool 0.208) = inoculated region 0.197 / 0.257 / 0.343; leaf margin 0.129 / 0.0668 / 0.100; systemic leaves 0.0322 / 0.0756 / 0.0684
* GGAAACCGCCCAAUC (pool 0.240) = inoculated region 0.0655 / 0.112 / 0.209; leaf margin 0.0162 / 0 / 0.0200; systemic leaves 0 / 0 / 0
* GGAAACCGGGUGUUC (pool 0.128) = inoculated region 0.0819 / 0.112 / 0.0762; leaf margin 0 / 0 / 0.0401; systemic leaves 0 / 0 / 0
* GGAAACCGUGUCCCC (pool 0.224) = inoculated region 0.0655 / 0.0482 / 0.171; leaf margin 0 / 0 / 0.0401; systemic leaves 0 / 0 / 0

The authors trace changes outside the varied positions to PCR and sequencing errors or to mutation in the plant; presence does not show that a variant is infectious alone.
With 43,870-66,106 reads a sample, very low values are single reads.
Wild type was 33.9 per thousand in the pool and the most common sequence in every sample (inoculated region 202, 200, 159; leaf margin 724, 746, 710; systemic leaves 856, 883, 880).